Anti-infective test results gathered from many reports (values: NIAID ChemDB through PubChem).

Common to all: growth or infection tests; agent: HIV-1; cells: HeLa; endpoint: EC50

ECn is the concentration giving n% inhibition of infection, replication or growth. Blank or dashed fields: not listed here. Conditions beyond the fields shown may differ between rows. Two numbers with a dash give a range or band.

| smiles | strain | changes | method | conditions | value |
|---|---|---|---|---|---|
| C[C@@H]1CN(C(=O)c2ccccc2)CCN1C(=O)C(=O)c1ccc2ccccc2c1 |  |  | luciferase / reporter gene |  | <1 µM |
| Cc1cc(C#N)cc(C)c1Oc1nc(Nc2ccc(C#N)cc2)nc2sccc12 | Y181C |  | luciferase |  | <0.01 µM |
| C[C@@H]1CN(C(=O)c2ccccc2)CCN1C(=O)C(=O)c1c[nH]c2c(NC(=O)Nc3ccccc3C(=O)O)cccc12 |  |  | luciferase / reporter gene |  | <1 µM |
| COc1ccc2[nH]c(C(=O)NCc3ccc(Cl)c(Oc4cc(Cl)cc(C#N)c4)c3)cc2c1 | HXB2 | V106A in RT |  |  | >1 µM |
| COC(=O)c1ccc(F)c2c(C(=O)C(=O)N3CCN(S(=O)(=O)N4CCC4)CC3)c[nH]c12 | Recombinant |  | luciferase |  | >5 µM |
| CC1CN(C(=O)c2ccccc2)CCN1C(=O)C(=O)c1c[nH]c2cccc(F)c12 | JR-FL |  | luciferase / reporter gene | pseudotyped | 0.00037 µM |
| COc1c(C(=O)C(=O)N2CCN(C(=O)c3ccccc3)CC2)cnc2c1c(C)nn2C |  |  | luciferase / reporter gene |  | 1–5 µM |
| CC(C)(C)C1CN(C(=O)C(=O)c2c[nH]c3cccc(F)c23)CCN1C(=O)c1ccccc1 | LAI |  | luciferase / reporter gene | pseudotyped | >5 µM |
| Cc1cc(C)c(Oc2nc(Nc3ccc(C#N)cc3)nc3ccsc23)c(C)c1 | Y181C |  | luciferase |  | <0.01 µM |
| CNC(=O)c1ccc(F)c2c(C(=O)C(=O)N3CCN(S(=O)(=O)N4CCCCC4)CC3)c[nH]c12 | Recombinant |  | luciferase |  | 1–5 µM |
| COc1nc2c(cc1NC1CCCc3ccccc31)c(=O)c(C(=O)O)cn2[C@H](CO)C(C)C | NL4-3 |  | luciferase | pseudotyped | >0.1 µM |
| C[C@@H]1CN(C(=O)c2ccccc2)CCN1C(=O)C(=O)c1cnc2ccccc2n1 |  |  | luciferase / reporter gene |  | <1 µM |
| CNC(=O)c1ccc(F)c2c(C(=O)C(=O)N3CCN(S(=O)(=O)N(C)C)CC3)c[nH]c12 | Recombinant |  | luciferase |  | <1 µM |
| CC#Cc1cn([C@@H]2O[C@H](COP(=O)(OCC)Oc3ccccc3)[C@@H](O)[C@@H]2O)c(=O)[nH]c1=O | HXB2 |  | plaque count |  | >50 µM |
| CC(=O)OCC(=O)Nc1cccc2c(C(=O)C(=O)N3CCN(C(=O)c4ccccc4)C[C@H]3C)c[nH]c12 |  |  | luciferase / reporter gene |  | <1 µM |
| CNC(=O)c1ncc(OC)c2c(C(=O)C(=O)N3CCN(C(=O)c4ccccc4)[C@H](C)C3)c[nH]c12 |  |  | luciferase |  | ≤0.0002 µM |
| CC1CN(C(=O)c2ccccc2)C(C)CN1C(=O)C(=O)c1c[nH]c2cccc(F)c12 | LAI |  | luciferase / reporter gene | pseudotyped | 0.0047 µM |
| COc1cccc2oc(C(=O)C(C#N)N3CCN(C(=O)c4ccccc4)CC3)cc12 |  |  | luciferase / reporter gene |  | <1 µM |
| Cc1cc(C)c(Nc2nc(Nc3ccc(C#N)cc3)nc3c(C)csc23)c(C)c1 | Y181C |  | luciferase |  | <0.01 µM |
| COc1cnc(-n2cc(C)nn2)c2[nH]cc(C(=O)C(=O)N3CCN(C(=O)c4ccccc4)[C@H](C)C3)c12 |  |  | luciferase |  | ≤0.0002 µM |
| CNC(=O)c1ccc(F)c2c(C(=O)C(=O)N3CCN(S(=O)(=O)NC)CC3)c[nH]c12 | Recombinant |  | luciferase |  | >5 µM |
| CC#Cc1cn([C@@H]2O[C@H](COP(=O)(O)OCCCCCCCCCCCC)[C@@H](O)[C@@H]2O)c(=O)[nH]c1=O | HXB2 |  | plaque count |  | >5 µM |
| CCCCNc1c(C(=O)C(=O)N2CCN(C(=O)c3ccccc3)CC2)cnc2c1cnn2CC |  |  | luciferase / reporter gene |  | >5 µM |
| CC1CC(C)CN(S(=O)(=O)c2ccccc2[N+](=O)[O-])C1 | 10076-4 |  | GFP / fluorescence |  | 0.63 µM |
| O=c1c(-c2nnc(SCc3ccccc3F)o2)c[nH]c2c(-c3ccccc3)cccc12 | NL4-3 |  | p24 / ELISA |  | 50 µM |
| CNC(=O)c1ccc(F)c2c(C(=O)C(O)N3CCN(C(=O)c4ccccc4)CC3)c[nH]c12 |  |  | luciferase / reporter gene |  | <1 µM |
| CCOC(=O)c1cn([C@H](CO)C(C)C)c2nc(OCC)c(NCc3ccc(F)cc3)cc2c1=O | NL4-3 |  | luciferase | pseudotyped | >0.1 µM |
| O=c1c(-c2nnc(SCc3ccc(F)cc3)o2)c[nH]c2c(-c3ccccc3)cccc12 | NL4-3 |  | p24 / ELISA |  | 53 µM |
| C[C@H]1CN(C(=O)c2ccccc2)CCN1C(C#N)C(=O)c1cnc2ccccc2n1 |  |  | luciferase / reporter gene |  | 1–5 µM |
| CC#Cc1cn([C@@H]2O[C@H](COP(=O)(O)OCC(Cl)(Cl)Cl)[C@@H](O)[C@@H]2O)c(=O)[nH]c1=O | HXB2 |  | plaque count |  | >50 µM |
| CN1c2ccccc2C2C1C=C(C#N)C(=O)N2c1ccc([N+](=O)[O-])cc1 | A-92UG029 |  | GFP / fluorescence |  | 0.05 µM |
| COc1cc2c(cc1Cc1c(F)cc(F)cc1F)c(=O)c(C(=O)O)cn2[C@H](CO)C(C)(C)C | NL4-3 |  | luciferase | pseudotyped | 0.01–0.1 µM |
| CNC(=O)c1ncc(OC)c2c(C(=O)C(=O)N3CCN(C(=O)c4ccccc4)CC3)c[nH]c12 |  |  | luciferase |  | 0.0002–1 µM |
| C[C@@H]1CN(C(=O)c2ccccc2)CCN1C(=O)C(=O)c1c[nH]c2c(NC(=O)CN(C)C)cccc12 |  |  | luciferase / reporter gene |  | <1 µM |
| CC1CN(C(=O)c2ccccc2)CCN1C(=O)C(=O)c1ccc2ccccc2c1 |  |  | luciferase / reporter gene |  | <1 µM |
| COc1cnc2c(=O)c(C(=O)O)cn([C@H](CO)C(C)C)c2c1 | NL4-3 |  | luciferase | pseudotyped | >0.1 µM |
| COc1ccc(-c2n[nH]c(C)n2)c2[nH]cc(C(=O)N3CCN(C(=O)c4ccccc4)CC3)c12 |  |  | luciferase / reporter gene |  | 1–5 µM |
| CC1CN(C(=O)c2ccccc2)CCN1C(=O)C(=O)c1c[nH]c2ccc(OC(F)(F)F)cc2c1=O |  |  | luciferase / reporter gene |  | >0.5 µM |
| CNC(=O)c1ncn(-c2ncc(OC)c3c(C(=O)C(=O)N4CCN(C(=O)c5ccccc5)CC4)c[nH]c23)n1 |  |  | luciferase |  | ≤0.0002 µM |
| COc1ccc(C#N)c2[nH]cc(C(=O)N3CCN(C(=O)c4ccccc4)C[C@H]3C)c12 |  |  | luciferase / reporter gene |  | >0.5 µM |
| Cc1cc(C)c(Nc2nc(Nc3ccc(C#N)cc3)nc3ccsc23)c(C)c1 | Y-188L |  | luciferase |  | >0.1 µM |
| C[C@H]1CN(C(=O)c2ccccc2)CCN1C(=O)C(=O)c1cc2ccccc2cn1 |  |  | luciferase / reporter gene |  | <1 µM |
| COc1cccc2[nH]cc(C(=O)C(=O)N3CCN(C(=O)c4ccccc4)CC3)c12 | LAI |  | luciferase / reporter gene | pseudotyped | 0.72 µM |
| COc1cnc(-n2nc(C)cc2C)c2[nH]cc(C(=O)C(=O)N3CCN(C(=O)c4ccccc4)CC3)c12 |  |  | luciferase |  | <1 µM |
| CC#Cc1cn([C@@H]2O[C@H](COP(=O)(O)Oc3ccc(OC)cc3)[C@@H](O)[C@@H]2O)c(=O)[nH]c1=O | HXB2 |  | plaque count |  | >50 µM |
| COc1cccc2oc(C(=O)C(C#N)N3CCN(C(=O)c4ccccc4)C[C@H]3C)cc12 |  |  | luciferase / reporter gene |  | >0.5 µM |
| CCOC(=O)c1cn([C@H](CO)C(C)C)c2nc(OC)c(NCc3ccc(C)cc3)cc2c1=O | NL4-3 |  | luciferase | pseudotyped | >0.1 µM |
| C[C@@H]1CN(C(=O)c2ccccc2)CCN1C(C#N)C(=O)c1ccc2ccccc2n1 |  |  | luciferase / reporter gene |  | <1 µM |
| CC#Cc1cn([C@@H]2O[C@H](COP(=O)(N[C@@H](C)C(=O)OC)Oc3ccccc3)[C@@H](O)[C@@H]2O)c(=O)[nH]c1=O | HXB2 |  | plaque count |  | >50 µM |
| CCCCNc1c(C(=O)C(=O)N2CCN(C(=O)c3ccccc3)C[C@H]2C)cnc2c1cnn2CC |  |  | luciferase / reporter gene |  | <1 µM |
| CCOC(=O)c1ccc(NC(=O)Nc2cccc3c(C(=O)C(=O)N4CCN(C(=O)c5ccccc5)C[C@H]4C)c[nH]c23)cc1 |  |  | luciferase / reporter gene |  | <1 µM |
| O=C(C(=O)N1CCN(C(=O)c2ccccc2)CC1)c1ccc2cccnc2c1 |  |  | luciferase / reporter gene |  | 1–5 µM |
| CC(C)CC1CN(C(=O)c2ccccc2)CCN1C(=O)C(=O)c1c[nH]c2cccc(F)c12 | LAI |  | luciferase / reporter gene | pseudotyped | 0.0792 µM |

For reference, 5 entries again:

smiles | strain | changes | method | conditions | value
COc1cccc2oc(C(=O)C(C#N)N3CCN(C(=O)c4ccccc4)CC3)cc12 |  |  | luciferase / reporter gene |  | <1 µM
CC(=O)OCC(=O)Nc1cccc2c(C(=O)C(=O)N3CCN(C(=O)c4ccccc4)C[C@H]3C)c[nH]c12 |  |  | luciferase / reporter gene |  | <1 µM
COc1cnc2c(=O)c(C(=O)O)cn([C@H](CO)C(C)C)c2c1 | NL4-3 |  | luciferase | pseudotyped | >0.1 µM
CC#Cc1cn([C@@H]2O[C@H](COP(=O)(O)OCC(Cl)(Cl)Cl)[C@@H](O)[C@@H]2O)c(=O)[nH]c1=O | HXB2 |  | plaque count |  | >50 µM
CC1CN(C(=O)c2ccccc2)C(C)CN1C(=O)C(=O)c1c[nH]c2cccc(F)c12 | LAI |  | luciferase / reporter gene | pseudotyped | 0.0047 µM